Experimental data from patent US11903388B2 (priority 2018, dated 2024).

Test system: Aspergillus parasiticus B62
Details: pure lichen compound in A. parasiticus culture

| SMILES | aflatoxin production |
| --- | --- |
| Cc1cc(OC(=O)c2c(C)cc(O)cc2O)cc(O)c1C(=O)O [Lecanoric acid] | inhibitory effects |
| COC(=O)c1c(C)cc(O)cc1O [methyl-orsellinate] | inhibitory effects |
